Measured values from several laboratories, pooled; numbers as filed in NIAID ChemDB.

All rows: toxicity to cultured cells; cells: C8166; endpoint: CC50

CCn is the concentration with n% toxicity to the cells.

structure | method | result
O=C(CN1CCCC1)Nc1ccc(Cc2ccc(NC(=O)CN3CCCC3)cc2)cc1 | - | 73.11 µg/mL
CCN(/C=C/c1ccccc1Cl)C(C)=O | MTT | 424 µM
Cc1nc(CCCCCOCc2ccccc2)n2nc(Cl)ccc12 | - | >0.38 µM
Oc1cc(O)c2c(c1)O[C@H](c1cc(O)c(O)c(O)c1)[C@@H](O)C2 | - | >80 µg/mL
COc1cc(CCOC(=O)CCC(=O)CO)cc(O)c1OC | MTT | 20.4 µg/mL
C[C@@H]1CC[C@@]2(O)C13CC(=O)C1(C)C2(C)CO[C@]1(OC(=O)c1ccccc1)[C@@H]3O | MTT | 238.2 µM
Cc1cn([C@H]2C[C@H](N=[N+]=[N-])[C@@H](COP(=O)(O)OCc3ccc(C(=O)OC(C)C)cc3)O2)c(=O)[nH]c1=O | MTT | 500 µM
O=C(CO)CCC(=O)OCCc1ccc2c(c1)OCO2 | MTT | 116.5 µg/mL
C=CCC1=C[C@@]2(CC=C(C)C)OCOC2=CC1=O | MTT | 292.4 µM
C=C(C)[C@@]1(OC(=O)c2ccccc2)[C@H](OC(C)=O)[C@@H]2[C@H](OC(C)=O)[C@@]3(C)O[C@@]4([C@@H]3OC(C)=O)[C@@H](OC(C)=O)[C@@H](C)C[C@H]4[C@@]2(O)[C@H](C)[C@@H]1OC(C)=O | MTT | 86.54 µg/mL
O=C(/C=C(\O)c1ncn[nH]1)c1ccc(Cc2ccc(F)cc2)o1 | resazurin | 25 µM
C[C@@H]1O[C@@H](O[C@@H]2[C@@H](O)[C@H](OCCc3ccc(O)c(O)c3)O[C@H](COC(=O)/C=C/c3ccc(O)c(O)c3)[C@H]2O)[C@H](O)[C@H](O)[C@H]1O | MTT | 72.7 µg/mL
C=C(C)[C@@]1(OC(=O)c2ccccc2)[C@H](OC(C)=O)[C@@H]2[C@H](OC(C)=O)[C@@]3(C)O[C@@]4([C@@H]3OC(=O)c3ccccc3)[C@@H](OC(C)=O)[C@@H](C)C[C@H]4[C@@]2(O)[C@H](C)[C@@H]1OC(C)=O | MTT | 97.92 µg/mL
C=CCC1(CC=C(C)C)C=C2OCOC2=CC1=O | MTT | 241.1 µM
C=C(C)[C@@]1(O)[C@H](OC(C)=O)[C@@H]2[C@H](OC(=O)c3ccccc3)[C@@]3(C)O[C@@]4([C@@H]3OC(=O)c3ccccc3)[C@@H](O)[C@@H](C)C[C@H]4[C@@]2(O)[C@H](C)[C@@H]1OC(=O)c1ccccc1 | MTT | >200 µg/mL
CN(C)c1ccc(CNC(=O)[C@@H](NC(=O)Cc2ccccc2)[C@@H]2N[C@@H](C(=O)NCCNC(=O)[C@@H]3N[C@@H]([C@H](NC(=O)Cc4ccccc4)C(=O)NCc4ccc(N(C)C)cc4)SC3(C)C)C(C)(C)S2)cc1 | - | >100 µM
CC(=O)N(/C=C/c1ccccc1Br)C(C)=O | MTT | 85 µM
CC1(C)S[C@H]([C@H](NC(=O)Cc2ccccc2)C(=O)NCc2ccccc2)N[C@H]1C(=O)NCCNC(=O)[C@@H]1N[C@@H]([C@H](NC(=O)Cc2ccccc2)C(=O)NCc2ccccc2)SC1(C)C | - | >100 µM
COc1ccc(/C=C/N(C)C(C)=O)c(OC)c1 | MTT | 256 µM
OCCc1ccc(O)c(O)c1 | MTT | 169.5 µg/mL
CC(=O)OC(C1CC(C)C(=O)O1)C(C)C1C2C3(O)OC4(CCC12C)C(=CCC1C(C)(C)OC2CC(=O)OC21C4O)C3=O | MTT | 126.5 µg/mL
CC1(C)S[C@H]([C@H](NC(=O)Cc2ccccc2)C(=O)N2CCCCC2)N[C@H]1C(=O)NCCNC(=O)[C@@H]1N[C@@H]([C@H](NC(=O)Cc2ccccc2)C(=O)N2CCCCC2)SC1(C)C | - | >100 µM
C[C@@H]1O[C@@H](OC[C@H]2O[C@@H](Oc3cc(O)c4c(c3)OC(c3ccc(O)cc3)CC4=O)[C@H](O)[C@@H](O)[C@@H]2O)[C@H](O)[C@H](O)[C@H]1O | - | 16 µg/mL
COC(=O)c1ccc(COP(=O)(O)OC[C@H]2O[C@@H](n3cc(C)c(=O)[nH]c3=O)C[C@@H]2N=[N+]=[N-])cc1 | MTT | 500 µM
Cc1cn([C@H]2C[C@H](N=[N+]=[N-])[C@@H](CO)O2)c(=O)[nH]c1=O | - | >30 µM
CC[C@@]1(O)C(=O)OCc2c1cc1n(c2=O)Cc2cc3cc(O)ccc3nc2-1 | MTT | 0.1409 µg/mL
O=c1c(O)c(-c2ccc(O)c(O)c2)oc2cc(O)cc(O)c12 | - | 10 µg/mL
Cc1cn([C@H]2C[C@H](N=[N+]=[N-])[C@@H](CO)O2)c(=O)[nH]c1=O | trypan blue | >0.08 µg/mL
C=C(C)[C@@]1(O)[C@H](OC(C)=O)[C@@H]2[C@H](OC(C)=O)[C@@]3(C)O[C@@]4([C@@H]3OC(=O)c3ccccc3)[C@@H](OC(C)=O)[C@@H](C)C[C@H]4[C@@]2(O)[C@H](C)[C@@H]1OC(=O)c1ccccc1 | MTT | >200 µg/mL
Cc1cn([C@H]2C[C@H](N=[N+]=[N-])[C@@H](CO)O2)c(=O)[nH]c1=O | MTT | >509 µM
COC(=O)c1ccc(COP(=O)(OCc2ccc(C(=O)OC)cc2)OC[C@H]2O[C@@H](n3cc(C)c(=O)[nH]c3=O)C[C@@H]2N=[N+]=[N-])cc1 | MTT | 50 µM
O=c1cc(-c2ccc(O)cc2)oc2cc(O)cc(O)c12 | - | 2 µg/mL
O=C(NCc1ccc(F)cc1)c1nc(N2CCCCS2(=O)=O)c2cccnc2c1O | resazurin | 3.1 µM
C=C(C)[C@@]1(OC(C)=O)[C@H](OC(C)=O)[C@@H]2[C@H](OC(C)=O)[C@@]3(C)O[C@@]4([C@@H]3OC(=O)c3ccccc3)[C@@H](OC(C)=O)[C@@H](C)C[C@H]4[C@@]2(O)[C@H](C)[C@@H]1OC(=O)c1ccccc1 | MTT | 19.2 µg/mL
CCOC(=O)c1ccc(COP(=O)(O)OC[C@H]2O[C@@H](n3cc(C)c(=O)[nH]c3=O)C[C@@H]2N=[N+]=[N-])cc1 | MTT | 500 µM
Cc1cn([C@H]2C[C@H](N=[N+]=[N-])[C@@H](COP(=O)(Oc3ccc([N+](=O)[O-])cc3)Oc3ccc([N+](=O)[O-])cc3)O2)c(=O)[nH]c1=O | - | 40 µM
CC1=C(C(=O)O[C@]23OCC4(C)C2(C)C(=O)CC2([C@H](C)CC[C@@]24O)[C@H]3O)CCC1 | MTT | 261.3 µM
Cc1cn([C@H]2C[C@H](N=[N+]=[N-])[C@@H](COP(=O)(O)OCc3ccc(C(=O)OC(C)(C)C)cc3)O2)c(=O)[nH]c1=O | MTT | 100 µM
C=C(C)[C@@]1(O)[C@H](OC(=O)c2ccccc2)[C@@H]2[C@H](OC(C)=O)[C@@]3(C)O[C@@]4([C@@H]3OC(=O)c3ccccc3)[C@@H](OC(C)=O)[C@@H](C)C[C@H]4[C@@]2(O)[C@H](C)[C@@H]1O | MTT | 54.04 µg/mL
CO[C@H]1/C=C/O[C@@]2(C)Oc3c(C)c(O)c4c(c3C2=O)C(=O)C(SCCOC(=O)CCC(=O)OC[C@H]2O[C@@H](n3cc(C)c(=O)[nH]c3=O)C[C@@H]2N=[N+]=[N-])=C(NC(=O)/C(C)=C\C=C\[C@H](C)[C@@H]2OC(C)(C)O[C@@H]([C@@H](C)[C@H](OC(C)=O)[C@@H]1C)[C@@H]2C)C4=O | - | >30 µM
NC(=O)c1[nH]c2ccc(Cl)cc2c1S(=O)(=O)c1ccccc1 | MTT | >20 µM
O=c1c(O[C@@H]2O[C@H](CO)[C@H](O)[C@H](O)[C@H]2O)c(-c2ccc(O)c(O)c2)oc2cc(O)cc(O)c12 | - | >100 µg/mL
CCN(/C=C/c1ccccc1Br)C(C)=O | MTT | 358 µM

Repeating the first 4 entries:

O=C(CN1CCCC1)Nc1ccc(Cc2ccc(NC(=O)CN3CCCC3)cc2)cc1 ; result: 73.11 µg/mL
CCN(/C=C/c1ccccc1Cl)C(C)=O ; method: MTT ; result: 424 µM
Cc1nc(CCCCCOCc2ccccc2)n2nc(Cl)ccc12 ; result: >0.38 µM
Oc1cc(O)c2c(c1)O[C@H](c1cc(O)c(O)c(O)c1)[C@@H](O)C2 ; result: >80 µg/mL

Blank or dashed fields: not listed here. Lines come from different laboratories, so protocols vary.